Laboratory results: PMC8664216 (PLoS Neglected Tropical Diseases, 2021)
Read-outs that look alike come from different tables or passages of the source. Marks after values point to notes of the source that are not given here.

Legend:
[1] = system: thioredoxin-related transmembrane protein 2 (TMX2); conditions: Huh7 cells, 10 μM tomatidine, mass spectrometry; for Fold change in TMX-2 protein expression, 16 h Toma vs EtOH: FDR <0.1
CD98 = conditions: Huh7 cells, 10 μM tomatidine, mass spectrometry; for Fold change in CD98 protein expression, 16 h Toma vs EtOH: FDR <0.1
CHIKV-LR = test: In-gel hybridization of CHIKV gRNA and sgRNA; assay type: cell-based, Chikungunya virus; conditions: Huh7 cells, MOI 10, 10 μM tomatidine, 6 hpi
p62 = conditions: Huh7 cells, 10 μM tomatidine, mass spectrometry; for Fold change in p62 protein expression, 16 h Toma vs EtOH: FDR <0.1
metallothionein (MT) = conditions: Huh7 cells, 10 μM tomatidine, mass spectrometry; for Fold change in MT protein expression, 16 h Toma vs EtOH: FDR <0.1

`C[C@H]1CC[C@]2(NC1)O[C@H]1C[C@H]3[C@@H]4CC[C@H]5C[C@@H](O)CC[C@]5(C)[C@H]4CC[C@]3(C)[C@H]1[C@@H]2C` [tomatidine, Tomatidine] was tested, and the “Fold change in TMX-2 protein expression, 6 h Toma vs EtOH” value ([1]; 6 h) was 1.04 fold, the “Fold change in TMX-2 protein expression, 16 h Toma vs EtOH” value [1] was 0.68 fold and the “Fold change in TMX-2 protein expression, 16 h Toma vs EtOH” value ([1]; listed as Toma) was 0.68 ^* fold. For the same molecule, the “Fold change in CD98 protein expression, 6 h Toma vs EtOH” value (CD98; 6 h) was 0.95 fold, the “Fold change in CD98 protein expression, 16 h Toma vs EtOH” value (CD98) was 1.72 fold and the “Fold change in CD98 protein expression, 16 h Toma vs EtOH” value (CD98; listed as Toma) was 1.72 ^* fold. The “sgRNA to gRNA ratio, presence vs absence of tomatidine” value (CHIKV-LR) was “No statistical differences”, the “Fold change in p62 protein expression, 6 h Toma vs EtOH” value (p62; 6 h) was 1.02 fold and the “Fold change in p62 protein expression, 16 h Toma vs EtOH” value (p62) was 2.07 fold. The “Fold change in p62 protein expression, 16 h Toma vs EtOH” value (p62; listed as Toma) was 2.07 ^* fold, the “Fold change in MT protein expression, 6 h Toma vs EtOH” value (metallothionein (MT); 6 h) was 0.93 fold and the “Fold change in MT protein expression, 16 h Toma vs EtOH” value (metallothionein (MT)) was 3.68 fold. The “Fold change in MT protein expression, 16 h Toma vs EtOH” value (metallothionein (MT); listed as Toma) was 3.68 ^* fold.
